Measurements reported in PubChem BioAssay AID1259414 (Drosophila RNAi Screening Center, 2018)

- Aim: 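Fly genes that alter Wolbachia amount inside host cells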 (primary screen)
- Cells: Drosophila JW18 cells infected with Wolbachia
- Knock-down reagent: long dsRNA against Drosophila genes, 0.25 µg dsRNA per well of a 384-well plate
- Timing: 5 days
- Challenge: cells persistently infected with Wolbachia before knock-down; no added drug
- Detection: 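Automated imaging of bacterial rRNA staining divided by host cell count, reported as plate-normalised robust z-score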
- Direction: Wolbachia per cell robust z: higher = more Wolbachia per host cell than the plate typical
- Call rule: 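Active if absolute robust z reaches 1.5 in two or more of three replicates, leaving out multi- or no-target dsRNAs, genes unexpressed in JW18 and A1 wells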
The deposit covers about 24,000 reagents; below is an unselected part of those with a known target gene and a result. In the full data, about 1,210 (5%) were called active. 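Inactive calls also include excluded dsRNAs with several or no targets, genes unexpressed in JW18, and well A1, regardless of score.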 Names joined by + are all predicted targets of the reagent. No sequences are given here.

| Gene | DRSC id | Wolbachia per cell robust z, rep 1 | Wolbachia per cell robust z, rep 2 | Wolbachia per cell robust z, rep 3 | outcome |
| --- | --- | --- | --- | --- | --- |
| ND-19 | DRSC04404 | 0.0919 | -0.172 | 0.281 | inactive |
| ND-19 | DRSC27604 | -7.82 | -0.829 | -0.477 | inactive |
| CG9119 | DRSC08620 | -0.914 | -0.576 | -0.116 | inactive |
| CG9119 | DRSC25290 | 0.512 | 2.3 | 0.211 | inactive |
| Cyp4ac2 | DRSC03303 | 0.148 | 0.387 | -2.91 | inactive |
| Dark | DRSC05922 | -0.351 | 0.983 | -0.371 | inactive |
| Dark | DRSC27800 | 0.289 | -0.852 | -0.0773 | inactive |
| Dark | DRSC40789 | -2.44 | -0.304 | -0.37 | inactive |
| snRNA:U2:34ABc | DRSC37898 | 0.882 | 0.435 | -1.96 | inactive |
| TBC1D5 | DRSC16421 | 0.449 | 0.504 | -0.371 | inactive |
| TBC1D5 | DRSC27219 | 0.631 | -0.59 | 0.533 | inactive |
| CG34460 | DRSC06974 | -2.44 | -1.11 | -2.64 | inactive |
| CG34460 | DRSC41471 | 0.162 | -0.906 | -0.535 | inactive |
| CG15695 | DRSC15117 | 0.481 | 0.555 | 0.712 | inactive |
| CG15695 | DRSC29582 | 0.106 | -1.19 | 0.38 | inactive |
| Dus2 | DRSC19591 | -2.98 | 0.369 | -0.384 | inactive |
| CG6443 | DRSC02958 | 0.0648 | -0.0658 | 0.556 | inactive |
| CG6443 | DRSC30036 | -2.35 | -1.12 | 1.32 | inactive |
| CG8301 | DRSC16405 | -0.837 | 0.0412 | -0.964 | inactive |
| CG8301 | DRSC28170 | -0.41 | 0.668 | 1.72 | inactive |
| Prp5 | DRSC19975 | -2.3 | 1 | 0.102 | inactive |
| Prp5 | DRSC27434 | 0.84 | 0.433 | -5.22 | inactive |
| alpha-Est2 | DRSC12614 | -0.332 | 0.67 | 1.04 | inactive |
| puc | DRSC17034 | 3.32 | 0.626 | 4.6 | active |
| puc | DRSC26308 | 0.316 | -0.359 | -0.577 | inactive |
| CG1503 | DRSC20512 | 1.35 | -4.48 | -2.93 | active |
| CG15465 | DRSC18048 | -0.414 | 0.132 | 0.891 | inactive |
| CG15465 | DRSC26250 | 1.07 | 0.951 | 1.21 | inactive |
| TBC1D23 | DRSC00657 | -1.8 | -0.037 | -0.076 | inactive |
| TBC1D23 | DRSC30084 | 0.872 | 2.38 | 1.07 | inactive |
| AspRS | DRSC05914 | 1.59 | -0.765 | -0.93 | inactive |

An excerpt of the results above:
| Gene | DRSC id | Wolbachia per cell robust z, rep 1 | Wolbachia per cell robust z, rep 2 | Wolbachia per cell robust z, rep 3 | outcome |
| --- | --- | --- | --- | --- | --- |
| TBC1D5 | DRSC27219 | 0.631 | -0.59 | 0.533 | inactive |
| CG34460 | DRSC06974 | -2.44 | -1.11 | -2.64 | inactive |
| CG34460 | DRSC41471 | 0.162 | -0.906 | -0.535 | inactive |
| CG15695 | DRSC15117 | 0.481 | 0.555 | 0.712 | inactive |
| CG15695 | DRSC29582 | 0.106 | -1.19 | 0.38 | inactive |

Further records follow:
| Gene | DRSC id | Wolbachia per cell robust z, rep 1 | Wolbachia per cell robust z, rep 2 | Wolbachia per cell robust z, rep 3 | outcome |
| --- | --- | --- | --- | --- | --- |
| Uhg3 | DRSC22963 | 0.826 | -2.15 | -1.44 | inactive |
| scramb1 | DRSC09724 | 0.181 | -0.00419 | -1.7 | inactive |
| scramb1 | DRSC10667 | 0.885 | 0.647 | 0.266 | inactive |
| scramb1 | DRSC10668 | 0.254 | -1.08 | -0.494 | inactive |
| Alp8 | DRSC04353 | -1.09 | -0.553 | -0.107 | inactive |
| Alp8 | DRSC27635 | -0.268 | -0.349 | -0.342 | inactive |
| Alp8 | DRSC41594 | 1.58 | 1.19 | 0.63 | inactive |
| serp | DRSC11035 | -0.873 | -0.818 | -0.508 | inactive |
| serp | DRSC11036 | 1.03 | 1.59 | 0.364 | inactive |
| CG14829 | DRSC10199 | -0.288 | 0.601 | 0.416 | inactive |
| CAH14 | DRSC04234 | 0.111 | -2.17 | -0.695 | inactive |
| CAH14 | DRSC22160 | 0.679 | -1.84 | -0.607 | inactive |
| CG12237 | DRSC19449 | -3.12 | -5.71 | -2.85 | active |
| CG12237 | DRSC22256 | -1.01 | -0.795 | 1.29 | inactive |
| CG12237 | DRSC24647 | -1.25 | -0.316 | -1.29 | inactive |
| na | DRSC19639 | 0.362 | 0.972 | -0.0735 | inactive |
| na | DRSC29828 | -7.79 | 0.837 | 0.407 | inactive |
| blo | DRSC05937 | 0.675 | 0.462 | 0.0347 | inactive |
| blo | DRSC27060 | -0.5 | -0.276 | 0.63 | inactive |
| CG32971 | DRSC01372 | 0.583 | -1.05 | -0.363 | inactive |
| PIG-L | DRSC15577 | 0.921 | 1.66 | 0.529 | inactive |
| PIG-L | DRSC24921 | -2.13 | -1.79 | 0.0988 | active |
| asRNA:CR42743 + CG34162 | DRSC01190 | -9.02 | 1.11 | -0.12 | inactive |
| asRNA:CR42743 + CG34162 | DRSC41335 | 0.0209 | 1.32 | 1.09 | inactive |
| CG8701 | DRSC07237 | 0.955 | -0.593 | -0.562 | inactive |
| RpLP0 | DRSC11878 | 0.788 | 1.14 | 0.471 | inactive |
| RpLP0 | DRSC22110 | 1.85 | 0.734 | 1.29 | inactive |
| CG33687 | DRSC37822 | -0.462 | 0.218 | -1.55 | inactive |
| CG9101 | DRSC20152 | 0.671 | -2.38 | 0.0938 | inactive |
| CG9101 | DRSC27575 | 0.184 | -0.335 | 0.0214 | inactive |
| CG9837 | DRSC16573 | 0.895 | 1.35 | 0.663 | inactive |
| CG9837 | DRSC27966 | -1.17 | -0.252 | -0.915 | inactive |
| mRpL23 | DRSC08307 | -3.34 | -0.0034 | 0.159 | inactive |
| lost | DRSC12002 | -1.25 | -0.0663 | -1.17 | inactive |
| lost | DRSC12234 | -1.74 | 0.676 | 0.31 | inactive |
| lost | DRSC21987 | -0.208 | 0.377 | 0.129 | inactive |
| CG32152 | DRSC22906 | -0.68 | -0.659 | -1.36 | inactive |
